A mixed list of measured activities; the numbers were collected in NIAID ChemDB.

Common to all: whole-cell or culture tests; species: Mycobacterium avium complex; endpoint: MIC

Rows are shuffled and stem from different studies.

{"smiles": "NCC[C@H](O)C(=O)N[C@@H]1C[C@H](N)[C@@H](O[C@H]2O[C@H](CN)[C@@H](O)[C@H](O)[C@H]2O)[C@H](O)[C@H]1O[C@H]1O[C@H](CO)[C@@H](O)[C@H](N)[C@H]1O", "strain": "CH-1/HIV+", "result": "5 µg/mL"}
{"smiles": "NCC1CCN(c2c(F)cc3c(=O)c(C(=O)O)cn(C4CC4)c3c2F)C1", "strain": "1172733", "result": "2 µg/mL"}
{"smiles": "CC[C@H]1OC(=O)[C@H](C)[C@@H](O[C@H]2C[C@@](C)(OC)[C@@H](O)[C@H](C)O2)[C@H](C)[C@@H](O[C@@H]2O[C@H](C)C[C@H](N(C)C)[C@H]2O)[C@](C)(OC)C[C@@H](C)C(=O)[C@H](C)[C@@H](O)[C@]1(C)O", "strain": "3219", "result": "2 µg/mL"}
{"smiles": "NCC[C@H](O)C(=O)N[C@@H]1C[C@H](N)[C@@H](O[C@H]2O[C@H](CN)[C@@H](O)[C@H](O)[C@H]2O)[C@H](O)[C@H]1O[C@H]1O[C@H](CO)[C@@H](O)[C@H](N)[C@H]1O", "strain": "827/HIV+", "result": "4 µg/mL"}
{"smiles": "O=C(O)c1cn(C2CC2)c2c(F)c(N3CCS(=O)CC3)c(F)cc2c1=O", "strain": "1915112", "result": "4 µg/mL"}
{"smiles": "CO[C@H]1/C=C/O[C@@]2(C)Oc3c(C)c(O)c4c(O)c(c(/C=N/N5CCN(C)CC5)c(O)c4c3C2=O)NC(=O)/C(C)=C\\C=C\\[C@H](C)[C@H](O)[C@@H](C)[C@@H](O)[C@@H](C)[C@H](OC(C)=O)[C@@H]1C", "strain": "13011 (serotype 16)", "result": "0.8 µg/mL"}
{"smiles": "CC[C@H]1OC(=O)[C@H](C)[C@@H](O[C@H]2C[C@@](C)(OC)[C@@H](O)[C@H](C)O2)[C@H](C)[C@@H](O[C@@H]2O[C@H](C)C[C@H](N(C)C)[C@H]2O)[C@](C)(O)C[C@@H](C)C(=O)[C@H](C)[C@@H](O)[C@]1(C)O", "strain": "3211", "result": "64 µg/mL"}
{"smiles": "CN1CC2CCC1CN2c1c(F)cc2c(=O)c(C(=O)O)cn(C3CC3)c2c1F", "strain": "1915112", "result": "4 µg/mL"}
{"smiles": "CN[C@@H]1[C@H](O[C@H]2[C@H](O[C@H]3[C@H](O)[C@@H](O)[C@H](N=C(N)N)[C@@H](O)[C@@H]3N=C(N)N)O[C@@H](C)[C@]2(O)C=O)O[C@@H](CO)[C@H](O)[C@H]1O", "strain": "Isolate C-39", "result": "≥100 µg/mL"}
{"smiles": "CCn1cc(C(=O)O)c(=O)c2cc(F)c(N3CCN(C)CC3)cc21", "strain": "CIPT 140310023", "result": "20 µg/mL"}
{"smiles": "CC1CN(c2cc3c(cc2F)c(=O)c(C(=O)O)cn3-c2ccc(F)cc2F)CCN1", "strain": "3216", "result": "16 µg/mL"}
{"smiles": "C[C@@H]1CN(c2c(F)c(N)c3c(=O)c(C(=O)O)cn(C4CC4)c3c2F)C[C@H](C)N1", "strain": "PI12/39", "result": "2 µg/mL"}
{"smiles": "NC[C@@H]1O[C@H](O[C@H]2[C@@H](O)[C@H](O[C@@H]3[C@@H](O)[C@H](N)C[C@H](N)[C@H]3O[C@H]3O[C@H](CO)[C@@H](O)[C@H](O)[C@H]3N)O[C@@H]2CO)[C@H](N)[C@@H](O)[C@@H]1O", "strain": "542/HIV+", "result": "<1.56 µg/mL"}
{"smiles": "NNC(=O)c1ccncc1", "strain": "13887 (serotype 14)", "result": "3.2 µg/mL"}
{"smiles": "O=C(O)c1cn(C2CC2)c2c(F)c(N3CC4CCCC(C3)N4)c(F)cc2c1=O", "strain": "PI12/39", "result": "8 µg/mL"}
{"smiles": "NNC(=O)c1ccncc1", "strain": "1008", "result": "2 µg/mL"}
{"smiles": "COC1CCN(c2c(F)cc3c(=O)c(C(=O)O)cn(C4CC4)c3c2F)C1", "strain": "1760694", "result": "4 µg/mL"}
{"smiles": "CC1COc2c(N3CCN(C)CC3)c(F)cc3c(=O)c(C(=O)O)cn1c23", "strain": "CIPT 140310034", "result": "10 µg/mL"}
{"smiles": "CC[C@H]1OC(=O)[C@H](C)[C@@H](O[C@H]2C[C@@](C)(OC)[C@@H](O)[C@H](C)O2)[C@H](C)[C@@H](O[C@@H]2O[C@H](C)C[C@H](N(C)C)[C@H]2O)[C@](C)(OC)C[C@@H](C)C(=O)[C@H](C)[C@@H](O)[C@]1(C)O", "strain": "1012", "result": "8 µg/mL"}
{"smiles": "CC(C)N=c1cc2n(-c3ccc(Cl)cc3)c3ccccc3nc-2cc1Nc1ccc(Cl)cc1", "strain": "1110/HIV-", "result": "0.12 µg/mL"}
{"smiles": "CC[C@@H](CO)NCCN[C@@H](CC)CO", "strain": "9838", "result": "7.5 µg/mL"}
{"smiles": "CCNCC1CN(c2c(F)cc3c(=O)c(C(=O)O)cn(C4CC4)c3c2F)CC1CNCC", "strain": "1988557", "result": "32 µg/mL"}